For at least one entry, the source does not settle the construct or the ends of the probe. At least one verdict rests on a figure or table, not on a statement of the authors. Protein sequences can lack the tags named with them.

For the series, the target named is T1, UL9CTD wild type (HSV-1) (UniProt P10193).
T1 sequence (looked up): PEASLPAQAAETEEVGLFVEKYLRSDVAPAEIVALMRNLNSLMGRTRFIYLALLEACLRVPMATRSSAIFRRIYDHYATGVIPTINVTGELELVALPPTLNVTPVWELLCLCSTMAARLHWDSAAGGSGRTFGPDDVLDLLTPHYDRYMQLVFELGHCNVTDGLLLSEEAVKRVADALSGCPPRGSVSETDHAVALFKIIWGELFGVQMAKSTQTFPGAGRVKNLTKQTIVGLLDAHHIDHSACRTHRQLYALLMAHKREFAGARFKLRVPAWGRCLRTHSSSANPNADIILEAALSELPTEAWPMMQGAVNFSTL
Put plainly: EMSA. The conditions noted are these: EMSA: 50 mM Tris pH 8.0, 50 mM NaCl, 1 mM DTT, 40 nM FAM-dsDNA, 0.5-3.5 uM protein, 4 C; recombinant protein; residues 536-851; protein details: N-terminal 8xHis.

With “GCGTTCGCACTTCGT (double strand) [15-bp oriS Box I dsDNA]”, the binding result was “binds”.

Source of the values: paper PMC13483431, “Structure and mechanism of the HSV-1 origin-binding protein UL9” (Journal of Virology, 2025).
